A mixed list of measured activities; the numbers were collected in NIAID ChemDB.

All rows: growth or infection tests; organism: Bovine viral diarrhea virus

ECn: concentration that inhibits the pathogen or its effect by n%. Rows are shuffled and stem from different studies. Percent inhibition refers to the dose given; in toxicity tests it is the harm to the cells. Blank or dashed fields: not listed here.

SMILES | read by | strain or isolate | endpoint | tested at | cell line | result
NCCCCC(N)C(=O)Nc1ccc(-c2ccc(NC(=O)Nc3nc4c(Cl)cccc4s3)nc2)cc1 | plaque count | NADL | EC50 | - | MDBK | 0.7 µM
O=c1nc(NO)ccn1[C@@H]1O[C@H](CO)[C@@H](O)[C@H]1O | virus yield | - | inhibition | 2 µM | MDCK | 90%
CC(C)N=C(N)c1ccc(-c2ccc(-c3nc4ccc(C(N)=NC(C)C)cc4[nH]3)o2)cc1 | - | - | inhibition | 5 µM | MDBK | 43%
O=[N+]([O-])c1ccc2c(c1)c(N=NC(=S)NC1CCCCC1)c(O)n2CN1CCCCC1 | cytopathic effect | - | EC50 | - | MDBK | >21 µg/mL
N=C(N)c1ccc(-c2ccc(-c3nc4ccc(C(=N)N)cc4[nH]3)o2)cc1 | - | - | inhibition | 25 µM | MDBK | 90%
FC(F)(F)c1ccc(Cn2ccc3nc(-c4ccccc4)nc-3c2)cc1 | cytopathic effect | PE515 | EC50 | - | MDBK | 0.029 µg/mL
N=C(N)c1ccc(-c2ccc(-c3ccc(C(=N)N)cc3)o2)cc1 | - | - | inhibition | 5 µM | MDBK | 0%
O=C1Nc2ccc([N+](=O)[O-])cc2/C1=N/N=C1/SCC(=O)N1c1ccccc1 | cytopathic effect | - | EC50 | - | MDBK | 44 µg/mL
Brc1ccc(Cn2ccc3nc(CSc4ccccc4)nc-3c2)cc1 | cytopathic effect | PE515 | EC50 | - | MDBK | 0.018 µg/mL
O=C1Nc2ccc([N+](=O)[O-])cc2/C1=N/N=C1/SCC(=O)N1C1CCCCC1 | cytopathic effect | - | EC50 | - | MDBK | >3 µg/mL
COc1ccccc1Cn1ccc2nc(-c3ccccc3)nc-2c1 | cytopathic effect | PE515 | EC50 | - | MDBK | 0.049 µg/mL
CC1S/C(=N/N=C2\C(=O)Nc3ccc([N+](=O)[O-])cc32)N(c2ccccc2)C1=O | cytopathic effect | - | EC50 | - | MDBK | >7 µg/mL
Fc1ccccc1-c1nc2ccn(Cc3ccc(I)cc3)cc-2n1 | cytopathic effect | - | EC50 | - | MDBK | 0.088 µg/mL
CNC(=S)N=Nc1c(O)[nH]c2ccc([N+](=O)[O-])cc12 | cytopathic effect | - | EC50 | - | MDBK | >50 µg/mL
Ic1ccc(Cn2ccc3nc(-c4ccccc4)nc-3c2)cc1 | cytopathic effect | PE515 | EC50 | - | MDBK | 0.12 µg/mL
Brc1ccc(Cn2ccc3nc(-c4ccccc4)nc-3c2)cc1 | ELISA | Marloie (type 1) | EC50 | - | MDBK | 0.5 µM
Brc1ccc(Cn2ccc3nc(-c4ccccc4)nc-3c2)cc1 | cytopathic effect | PE515 | EC50 | - | MDBK | 0.165 µg/mL
O=C1Nc2ccc([N+](=O)[O-])cc2/C1=N/N=C1/SCC(=O)N1c1ccc(Br)cc1 | cytopathic effect | - | EC50 | - | MDBK | >5 µg/mL

Repeating the final 2 entries:

SMILES,read by,strain or isolate,endpoint,tested at,cell line,result
Brc1ccc(Cn2ccc3nc(-c4ccccc4)nc-3c2)cc1,cytopathic effect,PE515,EC50,-,MDBK,0.165 µg/mL
O=C1Nc2ccc([N+](=O)[O-])cc2/C1=N/N=C1/SCC(=O)N1c1ccc(Br)cc1,cytopathic effect,-,EC50,-,MDBK,>5 µg/mL